Measured values from several laboratories, pooled; numbers as filed in NIAID ChemDB.

Shared fields: whole-cell or culture tests; agent: HIV-1; cell line: CEM + CEM-SS; endpoint: EC50

Blank or dashed fields: not listed here. ECn: concentration that inhibits the pathogen or its effect by n%. Neighbouring rows are from separate reports.

structure | strain or isolate | mutations | method | result
CCCc1cc(=O)oc2c3c(c4c(c12)OC(C)(C)C=C4)O[C@@H](C)[C@H](C)[C@@H]3O | RF | - | RT activity | 0.25 µM
Cc1cn([C@H]2C[C@H](N=[N+]=[N-])[C@@H](CO)O2)c(=O)[nH]c1=O | NL4-3 | RT-L100I | cytopathic effect / XTT | 0.003 µM
CC(=O)Nc1nc2c(ncn2/C=C\P(=O)(O)O)c(=O)[nH]1 | IIIB | - | - | >200 µM
O=[N+]([O-])c1cccc(S(=O)(=O)c2cccc([N+](=O)[O-])c2)c1 | RF | - | XTT | >100 µg/mL
Cc1cn([C@H]2C[C@H](N=[N+]=[N-])[C@@H](COC(=O)CCCCCCCCCCCF)O2)c(=O)[nH]c1=O | IIIB | - | - | 0.124 µM
CC(C)=CCN1Cc2cccc3[nH]c(=S)n(c23)C[C@@H]1C | RF | - | cytopathic effect / XTT | <0.03 µM
O=c1[nH]c(=O)n([C@H]2C=C[C@@H](CO)O2)cc1C#CCCOC1CCCCO1 | LAI | - | RT activity | 110 µM
O=C(CCC(=O)N1CCN(CCNC(=S)Nc2ccc(Br)cn2)CC1)NCC(=O)OC[C@@H]1C=C[C@H](n2ccc(=O)[nH]c2=O)O1 | LAI | - | RT activity | 6.9 µM
Cc1ccnc2c1NC(=O)c1cccnc1N2C1CC1 | Costatolide-resistant (RT L100I T139I) | RT-L100I T139I | XTT | 0.2 µM
CCO/N=C(/c1ccco1)c1c(CC)nc2sccn12 | LAI | - | RT activity | 16 µM
O=C(CCC(=O)N1CCN(CCNC(=S)Nc2ccc(Br)cn2)CC1)NCC(=O)OCC#Cc1cn([C@H]2CC[C@@H](CO)O2)c(=O)[nH]c1=O | LAI | - | RT activity | >10 µM
CCOP(=O)(/C=C/n1cc(C)c(=O)[nH]c1=O)OCC | IIIB | - | - | >200 µM
Cc1cn([C@H]2C[C@H](N=[N+]=[N-])[C@@H](COC(=O)CCCCCCCCCCCc3ccccc3)O2)c(=O)[nH]c1=O | IIIB | - | - | 0.1055 µM
Cc1cn([C@H]2C[C@H](N=[N+]=[N-])[C@@H](CO)O2)c(=O)[nH]c1=O | NL4-3 | RT-Y188C | XTT | 0.006 µM
Cc1cn([C@H]2C[C@H](N=[N+]=[N-])[C@@H](CO)O2)c(=O)[nH]c1=O | IIIB | - | cytopathic effect / MTT | 0.004 µM
CN1N=C(N)c2cn([C@@H]3O[C@H](COP(=O)(O)O)[C@@H](O)[C@H]3O)c3ncnc1c23 | - | - | syncytia / thymidine uptake | 0.01 µM
CC(C)=CCN1Cc2cc(Cl)cc3[nH]c(=S)n(c23)C[C@@H]1C | RF | - | cytopathic effect / XTT | 0.06 µM
Cc1cn([C@H]2C[C@H](N=[N+]=[N-])[C@@H](CO)O2)c(=O)[nH]c1=O | - | - | RT activity | 0.5 µM
Nc1ccn(/C=C/P(=O)(O)O)c(=O)n1 | IIIB | - | - | >200 µM
CCCc1cc(=O)oc2c3c(c4c(c12)OC(C)(C)C=C4)O[C@@H](C)[C@H](C)[C@@H]3O | NL4-3(RT-4XAZT+Y181C) | RT-D67N K70R Y181C T215Y K219Q | XTT | 0.01 µM
Cc1cn([C@H]2C[C@H](N=[N+]=[N-])[C@@H](COC(=O)CCCCCCCCCCCBr)O2)c(=O)[nH]c1=O | IIIB | - | - | 0.0032 µM
Fc1cccc(F)c1[C@H]1SCc2nc3ccccc3n21 | RF | - | cytopathic effect / XTT | 0.21 µM
O=c1[nH]c(=O)n([C@H]2C=C[C@@H](CO)O2)cc1C#CCO | LAI | - | RT activity | >100 µM
CCc1nc2ccccn2c1C(=O)c1ccco1 | LAI | - | RT activity | 5 µM
CCOP(=O)(/C=C\n1cc(CO)c(=O)[nH]c1=O)OCC | IIIB | - | - | >200 µM
Cc1cn([C@H]2C=C[C@@H](COC(=O)CNC(=O)CCC(=O)N3CCN(CCNC(=S)Nc4ccc(Br)cn4)CC3)O2)c(=O)[nH]c1=O | LAI | - | RT activity | 0.17 µM
CCc1c(Sc2ccccn2)n(COCc2ccccc2)c(=O)[nH]c1=O | Costatolide-resistant (RT L100I T139I) | RT-L100I T139I | XTT | 3 µM
C=C1C(=O)O[C@H]2/C=C(\C)C[C@@H]3C=C(CC/C=C(\C)CC[C@H]12)C(=O)O3 | RF | - | cytopathic effect / XTT | 0.1 µg/mL
CC1=CC(=O)C(C)(C2=NC(C)(C)CO2)c2ccccc21 | RF | RT-Y181C | cytopathic effect / XTT | >1000 µM
Cc1cn([C@H]2C[C@H](N=[N+]=[N-])[C@@H](COP(=O)(OCCSC(=O)C(C)(C)C)OCCSC(=O)C(C)(C)C)O2)c(=O)[nH]c1=O | LAI | - | cytopathic effect / MTT | 0.015 µM
Cc1cn([C@H]2C[C@H](N=[N+]=[N-])[C@@H](COC(=O)CCCCCCCCCc3ccccc3)O2)c(=O)[nH]c1=O | IIIB | - | - | 0.1601 µM
CCOP(=O)(/C=C/n1cnc2c(=O)[nH]c(NC(C)=O)nc21)OCC | IIIB | - | - | >200 µM
Cc1ccnc2c1NC(=O)c1cccnc1N2C1CC1 | NL4-3 | RT-V179D | cytopathic effect / XTT | 0.03 µM
Cc1cn([C@H]2C[C@H](N=[N+]=[N-])[C@@H](CO)O2)c(=O)[nH]c1=O | RF | - | cytopathic effect / XTT | 1.71 µM
Nc1ccn(/C=C\P(=O)(O)O)c(=O)n1 | IIIB | - | - | >200 µM
Cc1cn([C@H]2C[C@H](N=[N+]=[N-])[C@@H](CO)O2)c(=O)[nH]c1=O | LAI | - | RT activity | 0.014 µM
CCCc1cc(=O)oc2c3c(c4c(c12)OC(C)(C)C=C4)O[C@H](C)[C@@H](C)[C@@H]3O | RF | - | XTT | 0.13 µM
CCOP(=O)(/C=C/n1cnc2c(N)ncnc21)OCC | IIIB | - | - | >200 µM
Nc1ccc(S(=O)(=O)c2ccc(N)cc2)cc1 | RF | - | cytopathic effect / XTT | >100 µg/mL
CCCc1cc(=O)oc2c3c(c4c(c12)OC(C)(C)C=C4)O[C@H](C)[C@@H](C)[C@@H]3O | UC38-resistant (RT Y181C) | RT-Y181C | XTT | 0.2 µM
Cn1cc(N)cc1C(=O)Nc1cc(C(=O)Nc2ccc3cc(S(=O)(=O)O)cc(S(=O)(=O)O)c3c2)n(C)c1 | G762-3 | - | cytopathic effect / XTT | 5.4 µM
CC1(C)COC(C2(C)C(=O)C=Cc3ccccc32)=N1 | RF | - | cytopathic effect / XTT | 40 µM
O=c1[nH]c(=O)n([C@H]2C=C[C@@H](CO)O2)cc1C#CCCCCO | LAI | - | RT activity | 50 µM
COCCCCCCCCCCC(=O)OC[C@H]1O[C@@H](n2cc(C)c(=O)[nH]c2=O)C[C@@H]1N=[N+]=[N-] | IIIB | - | - | 0.0088 µM
Fc1cccc(F)c1C1SCc2nc3ccccc3n21 | MN | - | cytopathic effect / XTT | 1.5 µM
CCc1nc2ccccn2c1C(=O)c1cccs1 | LAI | - | RT activity | 2 µM
O=S(=O)(SC(Cl)(Cl)Cl)c1cccc(S(=O)(=O)c2cccc(S(=O)(=O)SC(Cl)(Cl)Cl)c2)c1 | RF | - | XTT | >100 µg/mL
CCc1nc2sccn2c1C(=O)c1ccccc1 | LAI | - | RT activity | 6 µM
Fc1cccc(F)c1C1SCc2nc3ccccc3n21 | RF | - | cytopathic effect / XTT | 1.1 µM
Cc1cn([C@H]2C[C@H](N=[N+]=[N-])[C@@H](CO)O2)c(=O)[nH]c1=O | RF | TIBO-resistant (RT Y181C) | cytopathic effect / XTT | 0.04 µM
CNc1ccc(Cl)cc1S(=O)(=O)c1ccccc1 | IIIB | - | XTT | 6 µM
CCc1nc2ccccn2c1C(=O)c1ccc(O)cc1 | LAI | - | RT activity | >100 µM
O=c1[nH]c(=O)n(/C=C\P(=O)(O)O)cc1I | IIIB | - | - | >200 µM
CCc1nc2sccn2c1C(=O)c1ccco1 | LAI | - | RT activity | 3 µM
CNc1ccc(Cl)cc1S(=O)(=O)c1ccccc1[N+](=O)[O-] | Calanolide A-resistant (RT T139L) | RT-T139L | XTT | 0.7 µM
Nc1ccn([C@H]2CC[C@@H](CO)O2)c(=O)n1 | RF | - | cytopathic effect | 0.039 µM
O=c1ccn(/C=C/P(=O)(O)O)c(=O)[nH]1 | IIIB | - | - | >200 µM
CNc1ccccc1S(=O)(=O)c1ccccc1[N+](=O)[O-] | IIIB | - | XTT | 1 µM